This passage reports MIC results from US9102607B2 (priority 2009, dated 2015).

Converted amounts (≈) assume the structure as drawn.

For the experiment, the system named is P. acnes CIP53.117. As to conditions: P. acnes CIP53.117, Wilkins-Chalgren broth, 36° C., anaerobic, at least 72 h.
One may read the MIC as the lowest concentration that inhibits growth of the organism. `O=C(OOC(=O)c1ccccc1OC(=O)C1CCCCC1)c1ccccc1` yielded an MIC of 320 mg/L (≈ 869 µM). With `O=C(Oc1ccccc1C(=O)OOC(=O)c1ccccc1OC(=O)OC1CCCCC1)OC1CCCCC1` the figure was 320 mg/L (≈ 608 µM); with `CC(C)(C)OC(=O)Oc1ccccc1C(=O)OOC(=O)c1ccccc1OC(=O)OC(C)(C)C`, 160 mg/L (≈ 337 µM).
